# Results of single-concentration screens

Data taken from ChEMBL document CHEMBL3988442, “University of Dundee, Small-Polar-MMV Screening Library” (2021).

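Growth of Mycobacterium tuberculosis over 4 days (cholesterol / DPPC medium with tyloxapol); the read-out is not stated. Compounds at 500 µM. Direction is inferred from retests: higher values go with more growth inhibition. About 18,000 compounds were tested under these conditions; 5% (about 900) showed 50% or more at least once.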

The filed quantity is “Percent Effect” (%).
The record does not define 0% and 100%; most values in the screen are far below 50% and negative numbers occur (in some assays of this library far below -100).
This is part of a subset picked to be rich in strong results.

Compound	Percent Effect
O=S1(=O)CCCN(Cc2ccc(Br)c(F)c2)CC1	77.27
COC(=O)N1CCN(c2ccccn2)CC1	52.17
CC(=O)c1csc(C)c1	4.011
CC(C)CN1CCN(c2ncccc2F)CC1	-3.334
CSc1ncccc1C(=O)NC(C)c1nc(C)c[nH]1 (centres unmarked)	2.671
COC(=O)C(O)CNc1ccc(C(F)(F)F)cn1 (centres unmarked)	60.39
O=C(OCc1cc(=O)n2ccsc2n1)c1cc(Cl)c[nH]1	2.422
CN1CCC(N(C)C(=O)Nc2ccc(C#N)cc2)CC1	-13.19
O=C(NCc1cccc(OCC(F)F)n1)C1CCCN1 (centres unmarked)	-10.91
CNC(C)(CO)c1ccccc1 (centres unmarked)	8.51
CN1CCC(N(C)CC(O)COCc2cccs2)CC1 (centres unmarked)	12.75
CCC1CN(CCN)CCO1 (centres unmarked)	-10.27
CN(C)c1ccc(C(=O)NCCc2c[nH]cn2)cn1	-2.757
CN(Cc1nnc2n1CCC2)C(=O)c1ccc(Cl)s1	-6.8
Cc1cccc(CNC(=O)C2=COCCO2)c1Br	-21.79
O=S(=O)(c1ccco1)N1CCSC2(CCOCC2)C1	31.86
Cc1nc(C)c(C(=O)NCCN2CCCCC2)o1	2.17
Cc1nc(C(=O)OCCn2cccn2)cs1	12.49
CCC1CN(CCCOC)CCN1CCOC (centres unmarked)	-6.99
CNC(=O)C1CCN(C(=O)CCc2cccs2)CC1	35.15
COCc1ccc(C(=O)N2CC[C@@H](N)[C@H](O)C2)s1	4.939
COc1cc(C(C)O)cc(OC)c1O (centres unmarked)	-7.291
CCS(=O)(=O)N(C)c1ccc(F)cc1OC	18.06
CN(C(=O)Cc1ccncc1)C1CCOC(C)(C)C1 (centres unmarked)	6.184
COCCN1CCN(CCS(=O)(=O)C(F)(F)F)CC1	108.3
Cn1cc(NC(=O)c2ccc(Br)s2)cc1C(N)=O	105.5
Nc1ccc(CNc2ccc(C(F)(F)F)nn2)cn1	21.1
CN(CC(=O)NC(N)=O)Cc1ccc(C(F)(F)F)cc1	-24.75
Clc1cnc(C2CCNCC2)nc1	3.935
Cc1[nH][nH]c(=O)c1CCN	54.99
O=C(Nc1cccc(Cl)c1)N1CCNCC1	12.36
COCc1nc(-c2cnn(C)c2)cs1	13.14
CCC1CN(CC(=O)N(C)C2CC2)CCS1 (centres unmarked)	10.51
CCO[C@H]1CN(CCCc2ccco2)C[C@@H]1O	1.799
c1ccc(-c2noc(C3CCCO3)n2)nc1 (centres unmarked)	9.225
N#Cc1ccc(CN2CCCN(CCCO)CC2)cc1	33.25
CC(c1nc(C2CC2)no1)N1CCn2ccnc2C1 (centres unmarked)	8.326
CCC(O)CCNS(=O)(=O)c1cnc2ccccc2c1 (centres unmarked)	-3.772
CC(Cc1ccco1)NC(=O)C1CCN(C(N)=O)CC1 (centres unmarked)	6.237
CCOC(=O)CNC(C)(C)C	-2.206
CC(C)C(N)c1nnc2n1CCC2 (centres unmarked)	-7.447
NCc1ccc(C(N)=O)cc1	-0.5838
NCc1cccc(S(=O)(=O)NCc2cccc(F)c2)c1	39.16
COc1ccc(CCN)cc1F	54.86
Cn1cc(Cl)c(C(=O)N2CCC3(CCO3)CC2)n1	2.087
CCCOC(=O)C(C)NC(=O)c1cccs1 (centres unmarked)	68.36
CCc1nnc(N2CCN(S(C)(=O)=O)CC2)o1	19.09
CCOc1cc(C(=O)NC2=NCCS2)ccc1OC	-7.036
Cn1c(=O)c2c(ncn2CCC#N)n(C)c1=O	-2.535
CCCC1SCCN1C(=O)c1ccc2nnnn2c1 (centres unmarked)	-2.704
NS(=O)(=O)CC1CCN(c2ncc(Br)cn2)CC1	88.88
CCOc1ccc(C(=O)CCN(C)C)cc1	114.8
CSc1ccc(NC(=O)C(C)N2CCN(C)CC2)cn1 (centres unmarked)	-3.441
O=C(NCC1(CO)CC1)OCc1ccccc1	54.81
CN(C(=O)c1ccccc1)S(=O)(=O)c1ccccc1	81.48
Cc1cccc2[nH]cc(CCN)c12	59.68
COc1ccnc(C(=O)N2CCCC(CCCO)C2)c1 (centres unmarked)	0.3974
CC(=O)Nc1cccc(C(C)O)c1 (centres unmarked)	-7.766
Cc1ccc(CNCCOc2ccccn2)o1	57.79
NC(=O)NC(=O)CN1CCSCC1	2.702
Cc1ccc(OCC(=O)N(C)C)c(C)c1	27.45
CCCN(C(=O)c1ccc(Br)cn1)C1CCNC1 (centres unmarked)	-17.58
CC(CO)(CO)NC(=O)c1ccc(-c2ccccc2)o1	-9.335
Cn1nnc(CNC(=O)C2CSc3ccccc3O2)n1 (centres unmarked)	27.28
NCc1cc2cccnc2cc1Br	-4.415
CCC(C)C(=O)NCc1cccnc1N1CCOCC1 (centres unmarked)	-8.303
Cc1nnc(SCCCNC(=O)CC2CCCN2C)s1 (centres unmarked)	0.1117
Cc1nnc(SCC(=O)N2CC[C@](C)(O)[C@@H](O)C2)o1	-10.22
COc1ccc(C(N)c2ccc(OC)cc2OC)cc1 (centres unmarked)	53.84
O=C(Cc1cccc(O)c1)N1CCc2cnccc21	15.08
CC(=O)N1CCN(C(=O)CCC(C)C)CC1	13.08
Cc1cc(C(=O)Nc2ccc3c(c2)CCN3)n(C)n1	-3.6
CC(C)Oc1cc(N2CCN(CCO)CC2)nc(N)n1	11.6
CCC[C@H](N)C(=O)NCCc1nc(COC)no1	-7.388
Cc1nc(C)c(C(=O)NC[C@@H]2C[C@H](F)CN2)s1	9.951
CC(=O)NCCNC(=O)CSCc1cccc(Cl)c1	11.9
COc1ccc(CCCN2CCNC(=O)CC2)cc1F	11.83
Cc1cc(C)cc(C(=O)NCCCNS(C)(=O)=O)c1	-50.28
CS(=O)(=O)C1CCCCNC1 (centres unmarked)	19.13
CC(C)OC(C)C(=O)NCCNc1cccnc1 (centres unmarked)	11.53
Cc1cncc(CN2CCCC(CNS(N)(=O)=O)C2)c1 (centres unmarked)	1.779
COC(=O)c1ccc(C(=O)NC2CC2)nc1	7.509
CNS(=O)(=O)c1ccc(NC2CCC2)cc1OC	-10.34
Nc1nnc(CCCN2C(=O)c3ccccc3C2=O)s1	-3.657
COc1ccc(CN2CCCC(N(C)C)CC2)cn1 (centres unmarked)	-26.44
CN(C)c1ccncc1N	0.687
COC(=O)N1CCC(Nc2nnc(C(F)(F)F)s2)CC1	66.45

For reference, 11 entries once more:

Compound,Percent Effect
COc1ccc(CCCN2CCNC(=O)CC2)cc1F,11.83
CCCOC(=O)C(C)NC(=O)c1cccs1 (centres unmarked),68.36
CNS(=O)(=O)c1ccc(NC2CCC2)cc1OC,-10.34
COC(=O)c1ccc(C(=O)NC2CC2)nc1,7.509
O=C(OCc1cc(=O)n2ccsc2n1)c1cc(Cl)c[nH]1,2.422
CC(Cc1ccco1)NC(=O)C1CCN(C(N)=O)CC1 (centres unmarked),6.237
CC(CO)(CO)NC(=O)c1ccc(-c2ccccc2)o1,-9.335
CCC[C@H](N)C(=O)NCCc1nc(COC)no1,-7.388
COc1ccnc(C(=O)N2CCCC(CCCO)C2)c1 (centres unmarked),0.3974
CN(C(=O)Cc1ccncc1)C1CCOC(C)(C)C1 (centres unmarked),6.184
CCOc1cc(C(=O)NC2=NCCS2)ccc1OC,-7.036